In brackets after ≈: the same amount, converted by molar mass. Several values for one entry are separate records, joined by “and”; a condition that tells them apart may be missing. Equal values may be shown once.
Tests used:
[1] = tested on: Mycobacterium abscessus; assay: MIC/MBC assays, CLSI method; type: cell-based
[2] = tested on: Staphylococcus aureus; assay: MIC/MBC assays, CLSI method; type: cell-based
[3] = tested on: P. aeruginosa biofilms; conditions: exposure 18-24 h
[4] = tested on: Acinetobacter baumannii; assay: MIC/MBC assays, CLSI method; conditions: N0075; Carb-R, XDR; Gram-negative
[5] = tested on: Burkholderia conocepacia; assay: MIC/MBC assays, CLSI method; conditions: N0034; Clinical isolate
[6] = tested on: Escherichia coli; assay: MIC/MBC assays, CLSI method; conditions: N0077; Carb-R; 3rd-gen ceph-R; ESBL+, MDR
[7] = tested on: Haemophilus influenzae; assay: MIC/MBC assays, CLSI method; conditions: N0097; Chloramphenicol-R, Tet-R, and Amp-R
[8] = tested on: Streptococcus pyogenes; assay: MIC/MBC assays, CLSI method; conditions: N0098; Erythromycin-resistant
[9] = tested on: P. aeruginosa; assay: Time kill assay in PBS or CAMHB
[10] = tested on: P. aeruginosa (PAK); assay: Time-kill study at different pH conditions
[11] = tested on: P. aeruginosa; assay: Anti-microbial activity (MBC) under aerobic and anaerobic growth conditions, 21 strains; conditions: out of 21 strains tested; two could not be grown anaerobically
[12] = M. abscessus N0019, clinical, Table 14, unit not given
[13] = M. abscessus N0020, clinical isolate, replicates 1 and 2
[14] = M. abscessus N0020, clinical, Table 14, unit not given
[15] = M. abscessus N0046, Table 14, unit not given
[16] = N0019, Clinical isolate (Table 9)
[17] = S. aureus N0040, MRSA, clinical isolate, Table 10, unit not given
[18] = Staphylococcus aureus(MRSA) N0040, Clinical isolate, MDR, MRSA, Vanco-S
[19] = Staphylococcus aureus(MSSA) N0007, Wichita, ATCC 29213

With [O-]/[N+](=N\O)C(/[N+]([O-])=N/O)/[N+]([O-])=N/O the MIC ([1]; M. abscessus N0019, clinical isolate, replicates 1 and 2) was 0.25 mg/mL (≈ 1270 µM), the MBC [1, 12] was 1 and the MIC [1, 12] was 0.25. It also gave an MB [1, 13] of 1 mg/mL, an MIC [1, 13] of 0.25 mg/mL (≈ 1270 µM) and an MBC [1, 14] of 1. For the same compound, the MIC [1, 14] was 0.25, the MBC ([1]; M. abscessus N0046, Ordway, replicates 1 and 2) was 1 mg/mL (≈ 5100 µM) and the MIC ([1]; M. abscessus N0046, Ordway, replicates 1 and 2, listed as VT-20-110, sodium salt) was 0.5 mg/mL and 0.25 mg/mL. For the same compound, the MBC [1, 15] was 1, the MIC [1, 15] was 0.25 and the “effectiveness at killing bacteria relative to cis-DMP/NO” value ([1]; M. abscessus strains, Table 14) was “four times as effective”. For the same compound, the “MBC, rep 1” value [1, 16] was 1000 µg/mL (≈ 5100 µM), the “MBC, rep 2” value [1, 16] was 1000 µg/mL (≈ 5100 µM) and the “MIC, rep 1” value [1, 16] was 250 µg/mL (≈ 1270 µM). The “MIC, rep 2” value [1, 16] was 250 µg/mL (≈ 1270 µM), the “concentration resulting in a 3-log reduction of bacterial survival (MBC)” value ([1]; all 9 strains tested (Table 8)) was 1 mg/ml and the MBC lower than the MBC of the NO-liberated degradation products (fold) ([2]; S. aureus) was 16 ×. For the same compound, the “MBC, rep 1” value [2, 17] was 0.25, the “MBC, rep 2” value [2, 17] was 0.25 and the “MIC, rep 1” value [2, 17] was 0.125. The “MIC, rep 2” value [2, 17] was 0.125, the “MBC, rep 1” value [2, 18] was 0.25 mg/mL (≈ 1270 µM) and the “MBC, rep 2” value [2, 18] was 0.25 mg/mL (≈ 1270 µM). For the same compound, the “MIC, rep 1” value [2, 18] was 0.125 mg/mL (≈ 637 µM), the “MIC, rep 2” value [2, 18] was 0.125 mg/mL (≈ 637 µM) and the “MBC, rep 1” value [2, 19] was 0.125 mg/mL (≈ 637 µM). The “MBC, rep 2” value [2, 19] was 0.125 mg/mL (≈ 637 µM), the “MIC, rep 1” value [2, 19] was 0.125 mg/mL (≈ 637 µM) and the “MIC, rep 2” value [2, 19] was 0.125 mg/mL (≈ 637 µM). The “concentration sufficient to eradicate bacteria biofilms (>3-log reduction)” value [3] was 0.391 mg/ml, the “MBC, rep 1” value [4] was 250 µg/mL (≈ 1270 µM) and the “MBC, rep 2” value [4] was 250 µg/mL (≈ 1270 µM). For the same compound, the “MIC, rep 1” value [4] was 63 µg/mL (≈ 321 µM), the “MIC, rep 2” value [4] was 63 µg/mL (≈ 321 µM) and the “MBC, rep 1” value [5] was 125 µg/mL (≈ 637 µM). For the same compound, the “MBC, rep 2” value [5] was 125 µg/mL (≈ 637 µM), the “MIC, rep 1” value [5] was 63 µg/mL (≈ 321 µM) and the “MIC, rep 2” value [5] was 63 µg/mL (≈ 321 µM). The “MBC, rep 1” value [6] was 250 µg/mL (≈ 1270 µM), the “MBC, rep 2” value [6] was 250 µg/mL (≈ 1270 µM) and the “MIC, rep 1” value [6] was 125 µg/mL (≈ 637 µM). For the same compound, the “MIC, rep 2” value [6] was 125 µg/mL (≈ 637 µM), the “MBC, rep 1” value [7] was 125 µg/mL (≈ 637 µM) and the “MBC, rep 2” value [7] was 250 µg/mL (≈ 1270 µM). For the same compound, the “MIC, rep 1” value [7] was 125 µg/mL (≈ 637 µM), the “MIC, rep 2” value [7] was 125 µg/mL (≈ 637 µM) and the “MBC, rep 1” value [8] was 62.5 µg/mL (≈ 319 µM). For the same compound, the “MBC, rep 2” value [8] was 125 µg/mL (≈ 637 µM), the “MIC, rep 1” value [8] was 31.25 µg/mL (≈ 159 µM) and the “MIC, rep 2” value [8] was 31.25 µg/mL (≈ 159 µM). For the same compound, the “time to kill all bacteria” value ([9]; CAMHB, all doses greater than or equal to 0.125 mg/ml) was at most 8 h, the “kill of bacteria at the lowest two doses evaluated” value ([9]; CAMHB, survivors at 8 hours regrew by 24 hours) was “insufficient to kill all the bacteria” and the eradication of bacteria ([9]; PBS and CAMHB, 37° C.) was “eradicated bacteria in a dose- and time-dependent manner”. The bacteria titers ([9]; PBS buffer system, all concentrations of MD3 used) was “below the limit of detection”, the “concentration of PAK after treatment” value ([10]; 0.03125 mg/ml, pH 6.4, from 10^6, in three hours, stayed up to 25 hours (FIG. 14)) was 10^2 CFU/ml and the “concentration of PAK after treatment” value ([10]; 0.03125 mg/ml, pH 7.4, from 10^6, in eight hours, stayed up to 25 hours (FIG. 14)) was 10^2 CFU/ml. For the same compound, the “reduction of the concentration of PAK” value ([10]; 0.03125 mg/ml, pH 8.4 (FIG. 14)) was “insufficient to significantly reduce”, the “concentration of PAK after treatment” value ([10]; 0.0625 mg/ml, pH 6.4, from 10^6, in two hours, stayed up to 25 hours (FIG. 13)) was 10^2 CFU/ml and the “concentration of PAK after treatment” value ([10]; 0.125 mg/ml, pH 6.4, from 10^6, in two hours, stayed up to 25 hours (FIG. 12)) was 10^2 CFU/ml. The “concentration of PAK after treatment” value ([10]; 0.125 mg/ml, pH 7.4, from 10^6, in four hours, stayed up to 25 hours (FIG. 12)) was 10^2 CFU/ml, the “concentration of PAK after treatment” value ([10]; 0.125 mg/ml, pH 8.4, from 10^6, in six hours, stayed up to 25 hours (FIG. 12)) was 10^5 CFU/ml and the “concentration of PAK after treatment” value ([10]; FIG. 13, printed dosage 0.125 mg/ml, pH 7.4, from 10^6, in six hours, stayed up to 25 hours) was 10^2 CFU/ml. For the same compound, the “concentration of PAK at 25 hours” value ([10]; FIG. 13, printed dosage 0.125 mg/ml, pH 8.4, 25 hours) was 10^6 CFU/ml, the “concentration of PAK after treatment” value ([10]; FIG. 13, printed dosage 0.125 mg/ml, pH 8.4, from 10^6, in eight hours) was 10^5 CFU/ml and the “dependence of efficacy on pH” value ([10]; pH 6.4, 7.6, 8.4) was “pH-dependent”. The “number of strains with identical activity under aerobic and anaerobic growth conditions” value [11] was 18.
